Measured values from several laboratories, pooled; numbers as filed in NIAID ChemDB.

Shared fields: tests in culture; organism: HIV-1; cells: MT-4; read-out: EC50

ECn: concentration that inhibits the pathogen or its effect by n%. Lines come from different laboratories, so protocols vary. Blank or dashed fields: not listed here.

compound | strain or isolate | changes | read by | setting | result
Cc1cc(C#Cc2ccccc2N)cc(C)c1Oc1ccnc(Nc2ccc(C#N)cc2)n1 | IIIB |  | MTT |  | 0.046 µM
Cc1cn([C@@H]2O[C@@H](COC(=O)c3ccccc3)C3(OS(=O)(=O)C=C3N)C2O[Si](C)(C)C(C)(C)C)c(=O)[nH]c1=O | IIIB |  | cytopathic effect / trypan blue |  | >100 µg/mL
OCc1cn(Cc2ccncc2)c(Sc2cc(Cl)cc(Cl)c2)c1C1CCCCC1 | IIIB |  | cytopathic effect / MTT |  | 0.22 µM
Cc1cc(/C=C/C#N)cc(C)c1Nc1ccnc(Nc2ccc(C#N)cc2)n1 | NL4-3 | Lu164 | luciferase / RT activity |  | 0.00009 µM
C[C@@H]1[C@H](O)[C@@H](CO)O[C@H]1n1cnc2c(=O)[nH]c(N)nc21 |  |  | MTT |  | >100 µM
C[C@H](Cn1cnc2c(N)ncnc21)OCP(=O)(OCOC(=O)OC1CCCC1)OCOC(=O)OC1CCCC1 |  |  | p24 |  | >30 µM
COc1ccc2ccc(OC(C)=O)c(Cc3c[nH]c4ccccc34)c2c1 |  |  | MTT |  | 27 µM
NC(=O)OCc1cn(Cc2ccncc2)c(Sc2cc(Cl)cc(Cl)c2)c1C1CCC1 | IIIB |  | cytopathic effect / MTT |  | 0.007 µM
CN1C2CCC1(c1nc(C(=O)NCc3ccc(F)cc3)c(O)c(=O)[nH]1)CC2 | IIIB |  | p24 | 50% human serum | <0.12 µM
N#Cc1ccc(Nc2nccc(Oc3cccc(C(=O)CC(=O)C(=O)O)c3)n2)cc1 | IIIB | K103N + Y181C | MTT |  | >10 µM
Cc1cn([C@@H]2O[C@H](CC3CCCCC3)C3(OS(=O)(=O)C=C3N)[C@H]2OC(=O)c2ccccc2)c(=O)[nH]c1=O | IIIB |  | cytopathic effect / trypan blue |  | >4 µg/mL
CN(C)CCNc1nc(N)nc2c1ncn2CCOCP(=O)(O)O | IIIB |  | cytopathic effect / MTT |  | 3.25 µg/mL
CN1CCOCC1c1nc(C(=O)NCc2ccc(F)cc2)c(O)c(=O)[nH]1 | IIIB |  | p24 | 50% human serum | <0.23 µM
COC(=O)N[C@H](C(=O)N[C@@H](Cc1ccccc1)[C@@H](O)CN(Cc1ccc(-c2ccccn2)cc1)NC(=O)[C@@H](NC(=O)OC)C(C)(C)C)C(C)(C)C | NL4-3 | M46I V82F I84V | p24 / luminescence |  | 0.0364 µM
COc1ccc2[nH]cc(Cc3c(OC(C)=O)ccc4ccccc34)c2c1 |  |  | MTT |  | 5 µM
Cc1cc(C)cc(S(=O)(=O)c2c(C(=O)NC(C)C(N)=O)[nH]c3ccc(Cl)cc23)c1 |  | Y188L | MTT |  | 0.66 µM
Cc1ccnc2c1NC(=O)c1cccnc1N2C1CC1 | IIIB | Y181C | MTT |  | >15 µM
Cc1cc(C#Cc2cccc(N)c2)cc(C)c1Oc1ccnc(Nc2ccc(C#N)cc2)n1 | IIIB | Y188L | MTT |  | 0.762 µM
O=c1ccn([C@@H]2CC(CO)(CO)CO2)c(=O)[nH]1 |  |  |  |  | >100 µg/mL
CN(C)C1(c2nc(C(=O)NCc3ccc(F)cc3)c(O)c(=O)[nH]2)CCCCC1 | IIIB |  | p24 | 50% human serum | <1 µM
Cc1cn([C@@H]2O[C@H](CCC(C)C)C3(OS(=O)(=O)C=C3N)[C@H]2OC(=O)c2ccccc2)c(=O)[nH]c1=O | IIIB |  | cytopathic effect / trypan blue |  | >4 µg/mL
CO[P@](=O)(c1cc(C)cc(/C=C/C#N)c1)c1c(C(N)=O)[nH]c2ccc(Cl)c(F)c12 | IIIB | K103R/V179D/P225H |  |  | 0.01 µM
Cc1cc(/C=C/c2ccccc2)cc(C)c1Oc1ccnc(Nc2ccc(C#N)cc2)n1 | IIIB | F227L + V106A | MTT |  | >18.5 µM
CCn1cc(C(=O)O)c(=O)c2cc(F)c(N3CCN(c4ccccc4OC)CC3)c(OC(F)F)c21 | IIIB |  | cytopathic effect / MTT |  | 0.29 µM
Cc1ccc(/C=C/c2cc(C)c(Oc3ccnc(Nc4ccc(C#N)cc4)n3)c(C)c2)cc1 | IIIB |  | MTT |  | 0.052 µM
CCC[C@@]1(CCc2ccccc2)CC(O)=C([C@H](CC)c2cccc(NS(=O)(=O)c3ccc(C(F)(F)F)cn3)c2)C(=O)O1 | NL4-3 | M46I V82F I84V | p24 / luminescence |  | 0.4021 µM
Cc1cc(C#Cc2cccc(N)c2)cc(C)c1Oc1ccnc(NC2CCN(Cc3ccc(C(N)=O)cc3)CC2)n1 | IIIB |  | MTT |  | 0.006 µM
Nc1nc(=O)n([C@@H]2CS[C@H](CO)O2)cc1F |  |  | p24 |  | 27.7 µM
C[C@H](C[n+]1c[nH]c2c(NCCCCCCCC3CCCCC3)nc(N)nc21)OCP(=O)(O)O | IIIB |  | cytopathic effect / MTT |  | 8 ± 2 µg/mL
CC(=O)Nc1cccc(C#Cc2cc(C)c(Oc3ccnc(Nc4ccc(C#N)cc4)n3)c(C)c2)c1 | IIIB | L100I | MTT |  | ≥0.169 µM
Nc1ccn([C@@H]2CC(CO)(CO)CO2)c(=O)n1 |  |  |  |  | >100 µg/mL
O=C(/C=C/c1ncc(-c2ccccc2)cn1)Nc1cc(-c2ccc3c(c2)CCCC3)[nH]n1 | NL4-3 | WT | luminescence |  | 0.99 µM
O=c1[nH]cnc2c1ncn2[C@H]1CC[C@@H](CO)O1 | LZ-07.96 (HXB2 RT T69N L74I Q151M M184V) | RT-T69N L74I Q151M M184V | cytopathic effect |  | 125 µM
CC(C)c1c(CO)cn(Cc2ccncc2)c1Sc1cc(Cl)cc(Cl)c1 | IIIB |  | cytopathic effect / MTT |  | 0.03 µM
Cc1cn([C@H]2C[C@H](N=[N+]=[N-])[C@@H](CO)O2)c(=O)[nH]c1=O | LZ-07.96 (HXB2 RT T69N L74I Q151M M184V) | RT-T69N L74I Q151M M184V | cytopathic effect |  | 0.252 µM
CNNC(=O)c1cn(Cc2ccncc2)c(Sc2cc(Cl)cc(Cl)c2)c1C(C)C | IIIB |  | cytopathic effect / MTT |  | 4 µM
Cc1cn([C@H]2C[C@H](N=[N+]=[N-])[C@@H](CO)O2)c(=O)[nH]c1=O | IIIB | E138K | MTT |  | 0.007 µM
CN(C)C1(c2nc(C(=O)NCc3ccc(F)cc3)c(O)c(=O)[nH]2)CCCC1 | IIIB |  | p24 | 10% FBS | <0.06 µM
COc1ccc(S(=O)(=O)N(CC(C)C)C[C@@H](O)[C@H](Cc2ccccc2)NC(=O)O[C@H]2CO[C@H]3O[C@@H]4OCC[C@@H]4[C@H]32)cc1 | NL4-3 |  | p24 / luminescence |  | 0.0005 µM
COC[C@@H](c1ccc(C(F)(F)F)cc1)N1CCN(C2(C)CCN(C(=O)c3c(C)ncnc3C)CC2)C[C@@H]1C | NL4-3 |  | MTT / absorbance |  | >5 µM
CN1CCN(C)C(C)(c2nc(C(=O)NCc3ccc(F)cc3)c(O)c(=O)[nH]2)C1 | IIIB |  | p24 | 50% human serum | <0.25 µM
COc1ccc2c(CN3CCN(Cc4c(O)ccc5cc(OC)ccc45)CC3)c(O)ccc2c1 |  |  | MTT |  | >100 µM
COc1ccccc1N1CCN(c2c(F)cc3c(=O)c(C(=O)O)cn(C4CC4)c3c2OC(F)F)CC1 | IIIB |  | cytopathic effect / MTT |  | 0.26 µM
Cc1cc(C#Cc2ccccc2)cc(C)c1Oc1ccnc(NC2CCN(Cc3ccc(S(N)(=O)=O)cc3)CC2)n1 | IIIB | K103N | MTT |  | 0.024 µM
O=C(Nc1cc(-c2ccc3c(c2)CCCC3)[nH]n1)c1ccc(-c2cncnc2)s1 | NL4-3 | K103N | luminescence |  | 1.4 µM
CC(C)OC(=O)OCOP(=O)(CO[C@H](C)Cn1cnc2c(N)ncnc21)OCOC(=O)OC(C)C.O=C(O)/C=C/C(=O)O | IIIB |  | p24 |  | 2.31 µM
CC(C)CN(C[C@@H](O)[C@H](Cc1ccccc1)NC(=O)O[C@H]1CCOC1)S(=O)(=O)c1ccc(N)cc1 | LAI |  | cytopathic effect / MTT |  | 0.021 µM
O=C(/C=C/c1ncc(-c2cccnc2)cn1)Nc1cc(-c2ccc3c(c2)CCCC3)[nH]n1 | NL4-3 | WT | luminescence |  | 0.96 µM
N#Cc1ccc(Nc2nccc(Oc3ccc(C(=O)CC(=O)C(=O)O)cc3)n2)cc1 | IIIB | L100I | MTT |  | >48 µM
Cc1cn([C@@H]2O[C@H](CO[Si](C)(C)C(C)(C)C)[C@@]3(OS(=O)(=O)C=C3N)[C@H]2O[Si](C)(C)C(C)(C)C)c(=O)[nH]c1=O | IIIB |  | cytopathic effect / trypan blue |  | 0.03 µg/mL
C=CCOC(=O)OCOP(=O)(CO[C@H](C)Cn1cnc2c(N)ncnc21)OCOC(=O)OCC=C |  |  | p24 |  | 1.61 µM
Cc1cn([C@H]2C=C[C@@H](CO)O2)c(=O)[nH]c1=O | AJ-05.93 (HXB2(RT-L74V)) | RT-L74V | cytopathic effect |  | 15.6 µM
Nc1nc(Nc2cccc3ccccc23)c2ncn(CCOCP(=O)(O)O)c2n1 | IIIB |  | cytopathic effect / MTT |  | 90 µg/mL

7 of the rows above, restated:

compound,strain or isolate,changes,read by,setting,result
CN(C)C1(c2nc(C(=O)NCc3ccc(F)cc3)c(O)c(=O)[nH]2)CCCC1,IIIB,,p24,10% FBS,<0.06 µM
CC(C)CN(C[C@@H](O)[C@H](Cc1ccccc1)NC(=O)O[C@H]1CCOC1)S(=O)(=O)c1ccc(N)cc1,LAI,,cytopathic effect / MTT,,0.021 µM
COc1ccc2[nH]cc(Cc3c(OC(C)=O)ccc4ccccc34)c2c1,,,MTT,,5 µM
CC(C)OC(=O)OCOP(=O)(CO[C@H](C)Cn1cnc2c(N)ncnc21)OCOC(=O)OC(C)C.O=C(O)/C=C/C(=O)O,IIIB,,p24,,2.31 µM
OCc1cn(Cc2ccncc2)c(Sc2cc(Cl)cc(Cl)c2)c1C1CCCCC1,IIIB,,cytopathic effect / MTT,,0.22 µM
N#Cc1ccc(Nc2nccc(Oc3cccc(C(=O)CC(=O)C(=O)O)c3)n2)cc1,IIIB,K103N + Y181C,MTT,,>10 µM
N#Cc1ccc(Nc2nccc(Oc3ccc(C(=O)CC(=O)C(=O)O)cc3)n2)cc1,IIIB,L100I,MTT,,>48 µM